Anti-infective test results gathered from many reports (values: NIAID ChemDB through PubChem).

All rows: growth or infection tests; species: Aspergillus flavus; endpoint: inhibition

Rows are shuffled and stem from different studies. Inhibition is in % at the dose shown (toxicity tests: loss of growth or viability). Blank or dashed fields: not listed here.

SMILES | strain | method | dose | value
CS(=O)(=O)c1ccc(C2CC(c3ccccc3)=NN2c2ccccc2)cc1 | NCIM 594 | broth dilution | 2000 µg/mL | 65.85%
Nc1nc(/N=C/c2ccccn2)n[nH]1.Nc1nc(/N=C/c2ccccn2)n[nH]1.[O]=[V+2] | - | agar diffusion / agar | 200 µg/mL | 54%
COc1cccc(C2=NN(c3ccccc3)C(c3ccc(SC)cc3)C2)c1 | NCIM 594 | broth dilution | 2000 µg/mL | 51.53%
NC(=S)NN=Cc1cccs1 | MTC 00040 | broth dilution | 500 µg/mL | 100%
COc1c(O)cc2c(c1C(C)C)C(=O)C(C)=C(C1=C(C)C(=O)c3c(cc(O)c(OC)c3C(C)C)C1=O)C2=O | ATCC 96044 | - | 100 µg/mL | 15.2%
O=S(=O)(Nc1ncccn1)c1ccc(N=Cc2c[nH]c3ccccc23)cc1 | - | - | 200 µg/mL | 25%
CS(=O)(=O)c1ccc(C2CC(c3ccc(Cl)cc3)=NN2c2ccccc2)cc1 | NCIM 594 | broth dilution | 2000 µg/mL | 88.44%
Cc1cc(NS(=O)(=O)c2ccc(N=Cc3c[nH]c4ccccc34)cc2)no1 | - | - | 200 µg/mL | 45%
C/C(=N\c1n[nH]c(N)n1)c1ccccn1 | - | agar diffusion / agar | 200 µg/mL | 44%
CSc1ccc(C2CC(c3cccc(N)c3)=NN2c2ccccc2)cc1 | NCIM 594 | broth dilution | 2000 µg/mL | 24.97%
COc1c(O)c(C=O)c2c(O)c(-c3c(C)c(=O)c4c(C(C)C)c(=O)c(=O)c(C=O)c-4c3=O)c(C)c(O)c2c1C(C)C | ATCC 96044 | - | 100 µg/mL | 43.8%
Cc1cc(C)nc(NS(=O)(=O)c2ccc(N=Cc3c[nH]c4ccccc34)cc2)n1 | - | - | 200 µg/mL | 55%
COc1ccccc1/C=N/c1n[nH]c(N)n1.COc1ccccc1/C=N/c1n[nH]c(N)n1.[O]=[V+2] | - | agar diffusion / agar | 200 µg/mL | 62%
COc1ccc(C2=NN(c3ccccc3)C(c3ccc(SC)cc3)C2)cc1 | NCIM 594 | broth dilution | 2000 µg/mL | 48.37%
Cc1c(-c2c(C)c(=O)c3c(C(C)C)c(=O)c(=O)cc-3c2=O)c(O)c2cc(O)c(O)c(C(C)C)c2c1O | ATCC 96044 | - | 100 µg/mL | 79.6%
COc1ccccc1/C=N/c1n[nH]c(N)n1 | - | agar diffusion / agar | 200 µg/mL | 56%
CSc1ccc(C2CC(c3ccccc3)=NN2c2ccccc2)cc1 | NCIM 594 | broth dilution | 2000 µg/mL | 30.5%
O=S(=O)(Nc1nccs1)c1ccc(N=Cc2c[nH]c3ccccc23)cc1 | - | - | 200 µg/mL | 30%
Nc1nc(/N=C/c2ccc[nH]2)n[nH]1 | - | agar diffusion / agar | 200 µg/mL | 49%

The first 2 rows once more:

SMILES	strain	method	dose	value
CS(=O)(=O)c1ccc(C2CC(c3ccccc3)=NN2c2ccccc2)cc1	NCIM 594	broth dilution	2000 µg/mL	65.85%
Nc1nc(/N=C/c2ccccn2)n[nH]1.Nc1nc(/N=C/c2ccccn2)n[nH]1.[O]=[V+2]	-	agar diffusion / agar	200 µg/mL	54%